From publication PMC4176424, “Thiolation-enhanced substrate recognition by D-alanyl carrier protein ligase DltA from Bacillus cereus” (F1000Research, 2014)

How the values were obtained:
C[C@@H](N)C(=O)O = experiment: purified protein; details: 5 mM ATP, 5 mM CoA, 10 mM MgCl2, 0.1 M KCl, pH 7.2
C[C@H](N)C(=O)O = experiment: purified protein; details: 5 mM ATP, 5 mM CoA, 10 mM MgCl2, 0.1 M KCl, pH 7.2

BcDltA (D-alanyl carrier protein ligase DltA) (Bacillus cereus ATCC 14579; C269A)
Km (C[C@@H](N)C(=O)O): 0.50 ± 0.05 × 10^-3 M
kcat (C[C@@H](N)C(=O)O): 0.263 s⁻¹
kcat/Km (C[C@@H](N)C(=O)O): 533 M⁻¹ s⁻¹
Km (C[C@H](N)C(=O)O): 8.8 ± 0.5 × 10^-3 M
kcat (C[C@H](N)C(=O)O): 0.275 s⁻¹
kcat/Km (C[C@H](N)C(=O)O): 31.7 M⁻¹ s⁻¹
